This is a selection: effects in other tests are not listed, and their absence says nothing.

In the test the target is Ralstonia solanacearum IPO1609 transmembrane dehydrogenase (SEQ ID NO:10), variant QYY, S327Q/S366Y/A473Y (Ralstonia solanacearum, UniProt A0ABF7REW7, A473Y/S327Q/S366Y). As to conditions: crude enzyme, DCIP 0.06 mM, PMS 0.6 mM.

Regarding `OC[C@H]1OC(O)[C@H](O)[C@@H](O)[C@@H]1O` (stereo partly shown) [Glucose, glucose], the “Vmax (Glc)” value worked out at 1.55 U/mL.

The values are drawn from patent publication US20120107903A1 (priority 2010, published 2012).
